In PubChem BioAssay AID527 (NMMLSC, 2006) one finds inhibition data, which are given here for two molecules.

The list shows a part of the results, in another mix than the full data. Active and inactive are the calls of the source.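 The calls were made as follows: active = share of bacteria positive for the green fluorescent reporter and its mean brightness both inhibited by 50% or more; inactive = the rest, inconclusive results apart.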

The nature of the assay: blockers of AIP-driven agr signalling in S. aureus – RNAIII-GFP reporter, flow cytometry, primary screen (AID 527).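 Also: 0% = AIP-stimulated control and 100% = unstimulated bacteria without AIP.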 As to conditions: S. aureus RN6390 RNAIII-GFP reporter, AIP-induced, flow cytometry 3 h; at 2 µM; stronger effect = higher value. For orientation: A flow cytometer gives signals particle by particle.
As a reminder, the inhibition is the relative decrease from the control value, in per cent. Take `Fc1ccccc1NC1CCN(Cc2ccccc2)CC1`: the inhibition was inactive: -0.2%.

Turning to `N#CC1(Nc2ccccc2)CCN(CCc2ccccc2)CC1`, the inhibition is inactive: 2.7%.
